Reference: paper PMC11748363, “Antimicrobial and Antiproliferative Properties of 2‐Phenyl‐N‐(Pyridin‐2‐yl)acetamides” (Chemical Biology & Drug Design, 2025)

Tested on: Mycobacterium tuberculosis H37Ra
Assay: Antimycobacterial microdilution broth MIC (resazurin), Mtb H37Ra
Assay type: cell-based
Settings: Related to 1/MIC

| Structure (SMILES) | Relative activity (title series vs previously published compound) |
| --- | --- |
| O=C(Cc1cccc(C(F)(F)F)c1)Nc1ccc(Cl)cn1 [Compound 26] | < |
| O=C(Cc1ccccc1Cl)Nc1cccc(Cl)n1 [Compound 15, 2-(2-chlorophenyl)-N-(6-chloropyridin-2-yl)acetamide] | > |
| COc1ccc(CC(=O)Nc2ccccn2)cc1 [Compound 10, 2-(4-methoxyphenyl)-N-(pyridin-2-yl)acetamide] | < |
| O=C(Cc1cccc(C(F)(F)F)c1)Nc1cccc(Cl)n1 [Compound 27] | < |
| COc1ccccc1CC(=O)Nc1ccc(Cl)cn1 [Compound 5] | < |
| O=C(Cc1ccccc1)Nc1cccc(Cl)n1 [Compound 3] | > |
| O=C(Cc1ccc(Cl)cc1)Nc1cccc(Cl)n1 [Compound 21] | > |
| COc1ccc(CC(=O)Nc2cccc(Cl)n2)cc1 [Compound 12, 2-(4-methoxyphenyl)-N-(6-chloropyridin-2-yl)acetamide] | = |
| COc1cccc(CC(=O)Nc2cccc(Cl)n2)c1 [Compound 9, 2-(3-methoxyphenyl)-N-(6-chloropyridin-2-yl)acetamide] | < |
| O=C(Cc1cccc(Cl)c1)Nc1ccccn1 [Compound 16, 2-(3-chlorophenyl)-N-(pyridin-2-yl)acetamide] | = |
| O=C(Cc1ccc(Cl)cc1)Nc1ccc(Cl)cn1 [Compound 20] | > |
| COc1ccccc1CC(=O)Nc1cccc(Cl)n1 [Compound 6] | = |
| COc1cccc(CC(=O)Nc2ccc(Cl)cn2)c1 [Compound 8, 2-(3-methoxyphenyl)-N-(5-chloropyridin-2-yl)acetamide] | > |
| COc1ccc(CC(=O)Nc2ccc(Cl)cn2)cc1 [Compound 11, 2-(4-methoxyphenyl)-N-(5-chloropyridin-2-yl)acetamide] | < |
| COc1ccccc1CC(=O)Nc1ccccn1 [Compound 4] | < |
| O=C(Cc1ccccc1Cl)Nc1ccc(Cl)cn1 [Compound 14, 2-(2-chlorophenyl)-N-(5-chloropyridin-2-yl)acetamide] | = |
| O=C(Cc1ccccc1)Nc1ccc(Cl)cn1 [Compound 2] | > |
| O=C(Cc1cccc(C(F)(F)F)c1)Nc1ccccn1 [Compound 25] | < |
| O=C(Cc1cccc(Cl)c1)Nc1cccc(Cl)n1 [Compound 18] | = |
| COc1cccc(CC(=O)Nc2ccccn2)c1 [Compound 7, 2-(3-methoxyphenyl)-N-(pyridin-2-yl)acetamide] | < |
| O=C(Cc1ccccc1)Nc1ccccn1 [Compound 1] | > |
| O=C(Cc1cccc(Cl)c1)Nc1ccc(Cl)cn1 [Compound 17, 2-(3-chlorophenyl)-N-(5-chloropyridin-2-yl)acetamide] | < |
| O=C(Cc1ccc(Cl)cc1)Nc1ccccn1 [Compound 19] | > |
| O=C(Cc1ccccc1Cl)Nc1ccccn1 [Compound 13, 2-(2-chlorophenyl)-N-(pyridin-2-yl)acetamide] | > |
